Measurements reported in PubChem BioAssay AID504761 (Drosophila RNAi Screening Center, 2011)

Purpose: 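Fly genes whose silencing reduces dengue virus type 2 infection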 (primary screen)
Cell system: D.Mel-2 cells from Drosophila
Reagent: long dsRNA against Drosophila genes
Challenge: infection with dengue virus type 2; dose and infection time not stated
Measurement: 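Cells stained for dengue envelope protein and imaged; percent of infected cells per well on duplicate plates, ranked by infection, with stained nuclei counted for cell number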
Reading the numbers: infection score: higher = more virus-infected cells; cell count: higher = more cells in the well
Call rule: 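Low infection ranks in the two replicates (chance level up to 0.065) followed by a retest with a 1.5-fold or larger significant decrease, p below 0.05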
Calls: active = confirmed: knock-down lowers infection; inactive = not picked or not confirmed
The deposit covers about 22,000 reagents; shown is an unselected part of those with a known target gene and a result. Over the whole deposit, 116 (0.52%) were called active. 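Calls depend on retest data that are not deposited; infection was ranked per plate without normalising between plates; the unit of the infection score is not given.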 The raw values are shown without normalisation. A number with no mark means an inactive call. Names joined by + are all predicted targets of the reagent. Not given: the amount of reagent, the time to read-out.

| target | amplicon | infection score, replicate 1 | infection score, replicate 2 | cell count, replicate 1 | cell count, replicate 2 |
| --- | --- | --- | --- | --- | --- |
| Rh4 + sina | DRSC11396 | 15.4 | 15.4 | 5746 | 5281 |
| Cyp313a4 | DRSC16627 | 3.27 | 2.74 | 6239 | 6995 |
| LSm1 | DRSC04458 | 4.17 | 16.8 | 1390 | 4806 |
| CG31869 | DRSC02582 | 10.7 | 5.88 | 6843 | 6923 |
| CG31869 | DRSC02674 | 5.23 | 6.27 | 6945 | 6698 |
| CG42729 | DRSC10236 | 14.9 | 11.2 | 5280 | 5291 |
| RpL7A | DRSC18709 | 3.15 | 2.13 | 1237 | 1267 |
| RpL7A | DRSC28833 | 3.47 | 6.68 | 749 | 659 |
| CG7800 | DRSC16315 | 5.58 | 11.3 | 6146 | 6192 |
| CG7800 | DRSC27419 | 14.2 | 4.83 | 6908 | 6258 |
| Xrcc2 | DRSC19984 | 3.05 | 10.5 | 6292 | 5957 |
| Xrcc2 | DRSC29513 | – | 12.6 | 311 | 3188 |
| Argp | DRSC16510 | 3.19 | 6.65 | 6108 | 6364 |
| CG14126 (retired record) | DRSC10130 | 1.72 | 1.44 | 6518 | 6596 |
| CG14126 (retired record) | DRSC28859 | 3.22 | 0.27 | 869 | 371 |
| Rab4 + CG42239 | DRSC05667 | 2.96 | 5.84 | 6460 | 5070 |
| RpL9 | DRSC03418 | 4.83 | 5.61 | 3646 | 3726 |
| CG13309 | DRSC09980 | 1.07 | 0.39 | 6561 | 6436 |
| CadN | DRSC03286 | 7.83 | 1.88 | 5506 | 6860 |
| CadN | DRSC27368 | 10.6 | 3.76 | 6478 | 6381 |
| CG2955 | DRSC00552 | 2.87 | 4.24 | 6105 | 6419 |
| Acsf2 | DRSC02172 | 4.85 | 4.36 | 5983 | 6392 |
| Acsf2 | DRSC27832 | 3.89 | 16.7 | 6402 | 6403 |

Copied from the list:
Entry for Rab4 + CG42239 [DRSC05667] under “infection score, replicate 1”: 2.96
Result for RpL9 [DRSC03418] in “cell count, replicate 2”: 3726
